Here are results for two molecules from patent publication US11203613B2, “Peptidomimetic proteasome inhibitors” (CORNELL UNIVERSITY, priority 2017, dated 2021).

By UniProt entry, the sequences of proteins in these tests, tags left out. Residues count along the entry.
UniProt P9WHT9, 58-291 limits assumed: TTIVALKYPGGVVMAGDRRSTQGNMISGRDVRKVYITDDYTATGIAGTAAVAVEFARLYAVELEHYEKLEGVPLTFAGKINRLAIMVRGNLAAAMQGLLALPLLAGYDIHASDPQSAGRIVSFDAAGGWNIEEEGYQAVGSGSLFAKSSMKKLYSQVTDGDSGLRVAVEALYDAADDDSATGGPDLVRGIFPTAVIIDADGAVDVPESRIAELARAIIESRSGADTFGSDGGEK

Some entries of the source have several records that differ or are many. This list holds those alone. An entry can have further records. The records of an entry differ for a reason that is not stated; some may be repeats, others may stem from another dose, organism or construct than stated.

The target of the experiment is Mtb20SOG (Mycobacterium tuberculosis, UniProt P9WHT9). The conditions noted are these: read-out: Mtb20SOG IC50.

Take `CC[C@H]1CCCCN1C(=O)C[C@H](NC(=O)CCC(C)(C)C)C(=O)N[C@@H](C)c1nc2ccccc2[nH]1`: the IC50 is 127 nM and 835 nM.
Next, `CC[C@H]1CCCCN1C(=O)C[C@H](NC(=O)C1CC1C(C)C)C(=O)N[C@@H](C)c1nc2c(F)cccc2[nH]1` (stereo partly drawn) [CEN-10, N—((S)-4-((S)-2-Ethylpiperidin-1-yl)-1-(((S)-1-(4-fluoro-1H-benzo[d]imidazol-2-yl)ethyl)amino)-1,4-dioxobutan-2-yl)-2-isopropylcyclopropane-1-carboxamide]: 11 nM, 23 nM, 21 nM.

Usually IC50 stands for the concentration at which inhibition is half-maximal.
